Test results published in paper PMC11112747, “Cyanovirin-N Binding to N-Acetyl-D-glucosamine Requires Carbohydrate-Binding Sites on Two Different Protomers” (Biochemistry, 2024).

Assays:
[1] = ITC binding of CV-N, CVN2 and variants to ManNAc; conditions: for -TΔS1: site 1; for -TΔS2: site 2; for N2: site 2 stoichiometry
Experimental: Calorimetric titrations were carried out using an ITC200 device (Malvern Panalytical, Malvern, UK). The concentration of mutant E41T dimer and monomeric variants CVN-E41T or CVN-E41A was 200 μM titrant of these proteins to the ligands ManNAc and GlcNAc in the cell. […] The protein concentrations were 44 μM (304 μM) CVN2L0 and 465 μM CVN-E41T in the ManNAc experiments, respectively, and determined to be between 200 and 300 μM for the GlcNAc experiment. Aliquots (2 μL) of CV-N titrant were injected at 2 min intervals into the sugar solution in the calorimetry cell with a total of 19 injections from a stirring syringe (operated at 750 rpm). Controls were prepared with identical amounts of titrant injected into PBS buffer at pH 7.4 at 298 K, and control values were subtracted from the results of the actual experiments. The values for enthalpy, binding affinity, and stoichiometry from the binding curve and the free energy and entropy of interaction were calculated using Microcal Origin v7.0 (OriginLab, Northampton, Massachusetts, USA) according to the standard expressions: ΔG = −RTln Ka, and ΔG = ΔH–TΔS.

[2] = ITC binding of CV-N, CVN2 and variants to GlcNAc; conditions: for stoichiometry / enthalpy ΔH / entropy TΔS / free energy ΔG: one-set of sites model, T = 298 K; for -TΔS1 / N1 / -TΔS2 / N2: two-sets of sites model; for -TΔS1: site 1; for N1: site 1 stoichiometry; for -TΔS2: site 2; for N2: site 2 stoichiometry; for enthalpy ΔH / entropy TΔS / free energy ΔG: PBS pH 7.4
[3] = one-set of sites model, T = 298 K, PBS pH 7.4

| Molecule | enthalpy ΔH [1, 3] [kcal/mol] | entropy TΔS [1, 3] [kcal/mol] | -TΔS1 ([1]; two-sets of sites model) [kcal/mol] | N1 ([1]; two-sets of sites model, site 1 stoichiometry) | -TΔS2 ([1]; two-sets of sites model) [kcal/mol] | N2 ([1]; two-sets of sites model) | stoichiometry [2] | -TΔS1 [2] [kcal/mol] | N1 [2] | -TΔS2 [2] [kcal/mol] | N2 [2] | enthalpy ΔH [2] | entropy TΔS [2] | free energy ΔG [2] |
| --- | --- | --- | --- | --- | --- | --- | --- | --- | --- | --- | --- | --- | --- | --- |
| CVN-E41T: CV-N binding-site variant with single-point mutation E41T, generated by alanine to threonine substitution (protein, UniProt P81180 1-101, looked up, variant E41T) Cyanovirin-N: LGKFSQTCYNSAIQGSVLTSTCERTNGGYNTSSIDLNSVITNVDGSLKWQPSNFIETCRNTQLAGSSELAAECKTRAQQFVSTKINLDDHIANIDGTLKYE | -80.0 ± 0.0 | -74.2 ± 0.7 | 30.5 | 4 | 73.5 | 4 | 1 |  |  |  |  |  |  |  |
| Cyanovirin-N (protein, UniProt P81180 1-101, looked up) Cyanovirin-N: LGKFSQTCYNSAIQGSVLTSTCERTNGGYNTSSIDLNSVIENVDGSLKWQPSNFIETCRNTQLAGSSELAAECKTRAQQFVSTKINLDDHIANIDGTLKYE |  |  | 54.6 |  | 74.1 | 3 |  | 73.9 | 1 | 73.9 | 1 |  |  |  |
| CVN2: tandem-linked dimeric CVN2 with zero-linker length; tandem repeat of two CV-N molecules (protein, UniProt P81180 1-101, looked up, tandem repeat dimer, zero linker, tandem-linked dimeric CVN2 with zero-linker length; tandem repeat of two CV-N molecules) Cyanovirin-N: LGKFSQTCYNSAIQGSVLTSTCERTNGGYNTSSIDLNSVIENVDGSLKWQPSNFIETCRNTQLAGSSELAAECKTRAQQFVSTKINLDDHIANIDGTLKYE |  |  | 69.8 |  | 67.5 |  | 4.33 ± 0.335 | -7.21 | 1 | 32.5 | 4 | –69.9 ± 17.2 kcal/mol | –61.7 ± 17 kcal/mol |  |
| mutant E41T dimer: CVN-E41T mutant expressed with a tandem repeat of two sequences (stable dimer) (protein, UniProt P81180 1-101, looked up, variant E41T, tandem repeat dimer) Cyanovirin-N: LGKFSQTCYNSAIQGSVLTSTCERTNGGYNTSSIDLNSVITNVDGSLKWQPSNFIETCRNTQLAGSSELAAECKTRAQQFVSTKINLDDHIANIDGTLKYE |  |  |  |  |  |  | N = 1 |  |  |  |  | –80.0 ± 0.0 kcal/mol | –73.3 ± 0.78 kcal/mol | –6.68 ± 0.79 kcal/mol |
| CVN-E41A: monomeric CV-N variant with Glu41 substituted by alanine (protein, UniProt P81180 1-101, looked up, variant E41A) Cyanovirin-N: LGKFSQTCYNSAIQGSVLTSTCERTNGGYNTSSIDLNSVIANVDGSLKWQPSNFIETCRNTQLAGSSELAAECKTRAQQFVSTKINLDDHIANIDGTLKYE |  |  |  |  |  |  | 4.73 ± 1.85 |  |  |  |  | –78.9 ± 1.6 kcal/mol | –71.85 ± 2.05 kcal/mol | –7.06 ± 0.44 kcal/mol |
